Consider 56 compounds from paper PMC7038234, “Screening of Natural Extracts for Inhibitors against Japanese Encephalitis Virus Infection” (Antimicrobial Agents and Chemotherapy, 2020).

Assay [1] has as its system JEV strain AT31. The assay can be described thus: microbe, parasite or virus in culture. The note with it: Japanese encephalitis virus, 24 h, Primary screening of 1034 compounds in the natural extracts library.
The subject of assay [2] is JEV strain AT31. The note with it: Primary screening of 1034 compounds in the natural extracts library.

Counter-ions that a name gives are not always drawn.

What is called inhibition is the drop in the measured response relative to a control, in per cent. Take `Oc1cc(O)cc(/C=C/c2ccc(O)c(O)c2)c1` [Piceatannol]: the inhibition at 50 µM in assay [1] is -21.4%.
Still for that read-out and setting: as for `CC[C@@]1(O)C(=O)OCc2c1cc1n(c2=O)Cc2cc3c(N)cccc3nc2-1` [9-Aminocamptothecin], the figure is 67.5%; as for `CC(C)=CCC[C@](C)(O)[C@H]1CC[C@]2(C)[C@@H]1[C@H](O)C[C@@H]1[C@@]3(C)CC[C@H](O)C(C)(C)[C@@H]3[C@@H](O[C@@H]3O[C@H](CO)[C@@H](O)[C@H](O)[C@H]3O)C[C@]12C` [Ginsenoside Rh1], -7.53%.
For the compound `CO[C@H]1O[C@@H]2O[C@@]3(C)CC[C@H]4[C@H](C)CC[C@@H]([C@H]1C)[C@@]24OO3` [Artemether], the inhibition at 50 µM in assay [1] is -0.756%.
For `COC(=O)C1=CO[C@@H](O)[C@@H]2C(CO)=CC[C@H]12` [Genipin], the inhibition at 50 µM in assay [1] was -0.628%.
Consider `CC(C)=CCC[C@](C)(O[C@@H]1O[C@H](CO[C@@H]2OC[C@@H](O)[C@H](O)[C@H]2O)[C@@H](O)[C@H](O)[C@H]1O)[C@H]1CC[C@]2(C)[C@@H]1[C@H](O)C[C@@H]1[C@@]3(C)CC[C@H](O[C@@H]4O[C@H](CO)[C@@H](O)[C@H](O)[C@H]4O[C@@H]4O[C@H](CO)[C@@H](O)[C@H](O)[C@H]4O)C(C)(C)[C@@H]3CC[C@]12C` [Ginsenoside Rb3], for which, in assay [1], the inhibition at 50 µM came to 29.5%.
On the same count and under the same terms, in the case of `O=c1cc(-c2ccc(O)cc2)oc2c([C@@H]3O[C@H](CO)[C@@H](O)[C@H](O)[C@H]3O)c(O)cc(O)c12` [Vitexin] it was 13.2%; in that of `Oc1ccc(/C=C/c2cc(O)cc(O)c2)cc1` [Resveratrol], 25.3%; in that of `COC(=O)c1ccc(O)cc1` [Methylparaben], -4.14%.
Consider `O=c1c2cc(O)c(O)cc2oc2cc(O)c([C@@H]3O[C@H](CO)[C@@H](O)[C@H](O)[C@H]3O)c(O)c12` [Mangiferin], for which the inhibition at 50 µM in assay [1] came out at 5.76%.
Turning to `CCOC(=O)/C=C/c1ccc(O)c(O)c1` [Ethyl caffeate], in assay [1], the inhibition at 50 µM stood at 14.6%.
Still for that read-out and setting: in the case of `OC[C@H]1O[C@H](O[C@H]2[C@H](O)[C@@H](O)C(O)O[C@@H]2CO)[C@H](O)[C@@H](O)[C@@H]1O` (mixture of isomers) [Maltose] it was -5.29%; in that of `COc1c(O)cc2occ(-c3ccc(O)cc3)c(=O)c2c1O` [Tectorigenin], 8.13%; in that of `COc1ccc2cc1Oc1ccc(cc1)C[C@H]1c3cc(c(OC)cc3CCN1C)Oc1c(OC)c(OC)cc3c1[C@H](C2)N(C)CC3` [Tetrandrine], 2.52%.
For `OC[C@H]1O[C@H](OC[C@H]2O[C@H](O[C@]3(CO)O[C@H](CO)[C@@H](O)[C@@H]3O)[C@H](O)[C@@H](O)[C@@H]2O)[C@H](O)[C@@H](O)[C@H]1O` [raffinose], the inhibition at 50 µM in assay [1] was -6.42%.
As to `O=c1oc2c(O)c(O)cc3c(=O)oc4c(O)c(O)cc1c4c23` [Ellagic acid], in assay [1], the inhibition at 50 µM was determined as 5.81%.
With `CCCCC/C=C\C/C=C\CCCCCCCC(=O)O` [Linoleic acid], the inhibition at 50 µM in assay [1] amounted to 12.3%.
Still for that read-out and setting: as for `O=C1C[C@@H](c2ccc(O[C@@H]3O[C@H](CO)[C@@H](O)[C@H](O)[C@H]3O)cc2)Oc2cc(O)ccc21` [Liquiritin], the figure is -6.55%.
For `C=C1CCC[C@]2(C)C=C3OC(=O)C(C)=C3C[C@@H]12` [AtractylenolideI], the inhibition at 50 µM in assay [1] was determined as 16.5%.
For `C[C@@H]1O[C@@H](O[C@H]2[C@H](OC(=O)[C@]34CCC(C)(C)C[C@H]3C3=CC[C@@H]5[C@@]6(C)C[C@H](O)[C@H](O[C@@H]7O[C@H](CO)[C@@H](O)[C@H](O)[C@H]7O)C(CO)(CO)[C@@H]6CC[C@@]5(C)[C@]3(C)C[C@H]4O)OC[C@H](O)[C@@H]2O)[C@H](O)[C@H](O)[C@H]1O[C@@H]1OC[C@@H](O)[C@H](O[C@@H]2OC[C@](O)(CO)[C@H]2O)[C@H]1O` [Platycodin D], the inhibition at 50 µM in assay [1] came out at 91.8%.
Turning to `COc1ccc(-c2cc(=O)c3c(O)c(OC)c(O)cc3o2)cc1OC` [Eupatilin], in assay [1], the inhibition at 50 µM is 34.9%.
Same read-out and setting: as for `C[C@@H]1CC[C@@]2(OC1)O[C@H]1C[C@H]3[C@@H]4CC=C5C[C@@H](O)CC[C@]5(C)[C@H]4CC[C@]3(C)[C@H]1[C@@H]2C` [Diosgenin], the figure is 37.5%; as for `COc1c2ccoc2c(OC)c2oc(=O)ccc12` [Isopimpinellin], 27.4%.
Consider `C=C(C)[C@@H]1CC[C@]2(CO)CC[C@]3(C)[C@H](CC[C@@H]4[C@@]5(C)CC[C@H](O)C(C)(C)[C@@H]5CC[C@]43C)[C@@H]12` [Betulin], for which the inhibition at 50 µM in assay [1] amounted to 5.56%.
`CC1(C)CC[C@]2(C(=O)O)CC[C@]3(C)C(=CC[C@@H]4[C@@]5(C)CC[C@H](O)[C@@](C)(CO)[C@@H]5CC[C@]43C)[C@@H]2C1` [Hederagenin]: in assay [1], the inhibition at 50 µM is -34.9%.
Same read-out and setting: in the case of `CC(C)=CCC/C(C)=C\CO` [Nerol] it was 1.46%; in that of `COc1ccc(C(=O)O)cc1O` [Isovanillic Acid], 15.1%; in that of `COc1cc(-c2oc3cc(O)cc(O)c3c(=O)c2O)ccc1O` [Isorhamnetin], 46.1%.
For the compound `OC[C@H]1NC[C@H](O)[C@@H](O)[C@@H]1O` [1-Deoxynojirimycin], the inhibition at 50 µM in assay [1] amounted to 95.2%.
The same measure, in the same setting: as for `CC(C)[C@@H](C)/C=C/[C@@H](C)[C@H]1CC[C@H]2C3=C[C@@H](O)[C@@]4(O)C[C@@H](O)CC[C@]4(C)[C@H]3CC[C@]12C` [cerevisterol], the figure is -58.2%; as for `COc1c(O)c(C)cc2c1C(=O)c1c(O)cccc1C2=O` [Obtusifolin], 52.5%.
The same measure, in the same setting: in the case of `CC[C@]12C=CCN3CC[C@]4(C(=C(C(=O)OC)C1)Nc1ccccc14)[C@@H]32` [Tabersonine] it was 95.7%.
Take `CCN1C[C@]2(COC)[C@H](O)C[C@H](OC)[C@@]34[C@@H]5C[C@@]6(O)[C@H](OC(=O)c7ccccc7)[C@@H]5[C@@](OC(C)=O)([C@@H]([C@H](OC)[C@H]23)[C@@H]14)[C@@H](O)[C@@H]6OC` [Aconitine]: the inhibition at 50 µM in assay [1] came to 22%.
Same read-out and setting: in the case of `c1cc2c(cc1O[C@H]1OC[C@H]3[C@@H]1CO[C@@H]3c1ccc3c(c1)OCO3)OCO2` [Sesamolin] it was -1.68%; in that of `COC(=O)C1=CO[C@@H](O[C@@H]2O[C@H](CO)[C@@H](O)[C@H](O)[C@H]2O)[C@@H]2[C@@H](C)[C@@H](O)C[C@H]12` [Loganin], 25.4%.
In the case of `COc1cc2oc(=O)ccc2cc1O` [Isoscopoletin], the inhibition at 50 µM in assay [1] is -9.14%.
Consider `COc1ccc(-c2cc(=S)ss2)cc1` [Anethole trithione], for which the inhibition at 50 µM in assay [1] was 5.7%.
Turning to `CC1(C)[C@@H](O[C@H]2O[C@H](C(=O)O)[C@@H](O)[C@H](O)[C@H]2O[C@@H]2O[C@H](C(=O)O)[C@@H](O)[C@H](O)[C@H]2O)CC[C@]2(C)[C@H]3C(=O)C=C4[C@@H]5C[C@@](C)(C(=O)O)CC[C@]5(C)CC[C@@]4(C)[C@]3(C)CC[C@@H]12` [Glycyrrhizic acid], the inhibition at 50 µM in assay [1] is -2.91%.
On the same count and under the same terms, in the case of `CCc1c2c(nc3ccc(O)cc13)-c1cc3c(c(=O)n1C2)COC(=O)[C@]3(O)CC` [7-Ethyl-10-hydroxycamptothecin] it was 66.4%; in that of `Oc1ccc(CC2NCCc3cc(O)c(O)cc32)cc1` (centres unmarked) [Higenamine], 19.2%.
For the compound `C/C=C/c1ccc(OC)cc1` [Anethole], the inhibition at 50 µM in assay [1] was found to be 4.81%.
As for `CC(C)=CCC[C@](C)(O)[C@H]1CC[C@]2(C)[C@@H]1[C@H](O)C[C@@H]1[C@@]3(C)CC[C@H](O)C(C)(C)[C@@H]3[C@@H](O[C@@H]3O[C@H](CO)[C@@H](O)[C@H](O)[C@H]3O[C@@H]3O[C@@H](C)[C@H](O)[C@@H](O)[C@H]3O)C[C@]12C` [Ginsenoside Rg2], in assay [1], the inhibition at 50 µM worked out at 6.46%.
The same measure, in the same setting: in the case of `COc1cc(O)c2c(c1)oc(=O)c1c3cc(O)c(O)cc3oc21` [Wedelolactone] it was -42%; in that of `COc1ccc(-c2coc3cc(O[C@@H]4O[C@H](CO)[C@@H](O)[C@H](O)[C@H]4O)ccc3c2=O)cc1` [Ononin], 0.375%; in that of `C=C1C(=O)[C@@]23[C@H](O)C[C@@H]4C(C)(C)C(=O)CC[C@@]4(C)[C@@H]2CC[C@@H]1[C@H]3O` [glaucocalyxin A], 80.1%.
Take `COC(=O)[C@@H]1[C@H]2C[C@H]3c4[nH]c5ccccc5c4CCN3C[C@@H]2CC[C@@H]1O` [Yohimbine Hydrochloride]: in assay [1], the inhibition at 50 µM is 92%.
Same read-out and setting: in the case of `C[n+]1cccc(C(=O)[O-])c1` [Trigonelline Hydrochloride] it was -57.9%; in that of `C=C(C)[C@@H]1CC[C@]2(C=O)CC[C@]3(C)[C@H](CC[C@@H]4[C@@]5(C)CC[C@H](O)C(C)(C)[C@@H]5CC[C@]43C)[C@@H]12` [Betulinaldehyde], -52%; in that of `C[C@@H]1[C@H]2[C@H](O[C@@H]3O[C@H](CO)[C@@H](O)[C@H](O)[C@H]3O)OC=C(C(=O)O)[C@H]2C[C@@H]1O` [Loganic acid], 4.02%.
With `O=C(O)[C@]1(O)C[C@@H](O)[C@@H](O)[C@H](O)C1` [Quinic acid], in assay [1], the inhibition at 50 µM turned out to be 24.7%.
In the case of `CC(=O)O[C@H](CC=C(C)C)C1=CC(=O)c2c(O)ccc(O)c2C1=O` [acetylshikonin], the inhibition at 50 µM in assay [1] is -80.9%.
As to `CO[C@]1(CC[C@@H](C)CO[C@@H]2O[C@H](CO)[C@@H](O)[C@H](O)[C@H]2O)O[C@H]2C[C@H]3[C@@H]4CC=C5C[C@@H](O[C@@H]6O[C@H](CO)[C@@H](O[C@@H]7O[C@@H](C)[C@H](O)[C@@H](O)[C@H]7O)[C@H](O)[C@H]6O[C@@H]6O[C@@H](C)[C@H](O)[C@@H](O)[C@H]6O)CC[C@]5(C)[C@H]4CC[C@]3(C)[C@H]2[C@@H]1C` [Methyl protodioscin], the inhibition at 50 µM in assay [1] is 22.2%.
With `CC1(C)C2CCC1(C)C(O[C@@H]1O[C@H](CO[C@@H]3OCC(O)(CO)[C@H]3O)[C@@H](O)[C@H](O)[C@H]1O)C2` (some centres unmarked), in assay [2], the “Inhibition (%)” value is reported as -8.215%.
With `CC(C)COC(=O)c1ccc(O)cc1` [Isobutyl 4-Hydroxybenzoate], the “Inhibition (%)” value in assay [2] is given as -13.3913%.
The same measure, in the same setting: as for hydroxysaffloryellowA, the figure is 1.952%; as for `O=c1cc(-c2ccc(O)c(O)c2)oc2cc(O)c([C@@H]3O[C@H](CO)[C@@H](O)[C@H](O)[C@H]3O)c(O)c12` [IsoorientinI], 2.497%.
